The assay has as its target CD79b (B-cell antigen receptor complex-associated protein β-chain) (human) (UniProt P40259). As to the kind of experiment: cell-based or functional assay.

Substance “ATB 780, CD79b (polatuzumab) [HC-G4S-Ricin × LC]” yielded an IC50, cell viability assay (Cell Titer Glo) on CD79b+ cells of 1.58 nM.

(Values after patent publication US20250387478A1.)
